Compound potency records, mixed from different reports. Data source: NIAID ChemDB in PubChem.

All rows: host cell toxicity; cells: VERO; read-out: CC50

Blank or dashed fields: not listed here.

compound,read by,result
CC#Cc1cn([C@@H]2O[C@H](COP(=O)(O)Oc3ccc(OC)cc3)[C@@H](O)[C@@H]2O)c(=O)[nH]c1=O,,>500 µM
Cc1cn([C@@H]2C[C@H](O)[C@@H](CO)S2)c(=O)[nH]c1=O,,>100 µM
CCn1cc(C(=O)O)c(=O)c2cc(F)c(N3CCN(CN4C(=O)/C(=N\c5ncc(Cc6cc(OC)c(OC)c(OC)c6)c(N)n5)c5cc(Cl)ccc54)C(C)C3)c(F)c21,,>10 µg/mL
CCc1nc2ccccc2n1CCCCSc1ccc(OC)cc1,luminescence,34 µM
Nc1ccn([C@H]2C[C@@H](CO)[C@H](O)[C@@H]2O)c(=O)n1,,>100 µM
CC#Cc1cn([C@@H]2O[C@H](COP(=O)(OCC(Cl)(Cl)Cl)Oc3ccccc3)[C@@H](O)[C@@H]2O)c(=O)[nH]c1=O,,>125 µM
COc1cc(Cc2cnc(/N=C3\C(=O)N(CN4CCN(c5c(F)cc6c(=O)c(C(=O)O)cn(C7CC7)c6c5F)CC4C)c4ccc(F)cc43)nc2N)cc(OC)c1OC,,>10 µg/mL
O=c1c(-c2ccccc2)nn(C/C=C\CO)c2ncnn12,,>500 µM
Cc1ccc(NC(=O)C(Cl)Cl)cc1Cl,,2 µg/mL
O=c1ccn([C@@H]2C[C@H](CO)C[C@H]2CO)c(=O)[nH]1,,>200 µg/mL
C[C@H](CCCC(C)(C)C)C1CCC2C3C[C@H](COS(=O)(=O)O)C4C[C@H](OS(=O)(=O)O)[C@@H](OS(=O)(=O)O)C[C@]4(C)C3CC[C@@]21C.[Na+].[Na+].[Na+],MTT,11.89 µg/mL
OC[C@H]1O[C@H](On2cnc3c(Cl)ncnc32)CS1,,>100 µg/mL
O=C(Nc1ccccc1F)c1cccc2[nH]c(-c3cccnc3)nc12,,37 µg/mL
NC(=S)N=Nc1c(O)n(CN2CCN(c3cc4c(cc3F)c(=O)c(C(=O)O)cn4C3CC3)CC2)c2ccc(Br)cc12,,>0.097 µM
[N-]=[N+]=NC(CBr)c1cn(CCC(CO)CO)c(=O)[nH]c1=O,,>540 µM
COc1ccc2c(c1)[n+]([O-])c(-c1ccccc1)c(N)[n+]2[O-],,16.28 µg/mL
CCn1cc(C(=O)O)c(=O)c2cc(F)c(N3CCN(CN4C(=O)/C(=N\c5ncc(Cc6cc(OC)c(OC)c(OC)c6)c(N)n5)c5cc(Br)ccc54)C(C)C3)c(F)c21,,>10 µg/mL
CN(C)/C=C/c1c2c(nc3ccccc13)C(=O)c1ccccc1C2=O,,5.9 µg/mL
c1ccc(-c2cc3ccccn3c2)cc1,MTT,100–500 µM
Nc1ncnc2c1ncn2O[C@@H]1CO[C@@H](CO)O1,,>100 µg/mL
O=C1C(=O)N(CN2CCN(c3cc4c(cc3F)c(=O)c(C(=O)O)cn4C3CC3)CC2)c2ccccc21,,>0.127 µM
CC(=O)c1c(C)n([O-])c2cc(C)c(C)cc2[n+]1=O,,>62.5 µg/mL
CCCCC[C@@]1(C(=O)CCC)CC[C@@]2(c3ccccc3)ON12,,>50 µg/mL
Cc1nc2n(COCCO)nc(-c3ccccc3)c(=O)n2n1,,>500 µM
CC#Cc1cn([C@@H]2O[C@H](COP(=O)(NCCCCCCCCCCCC)Oc3ccccc3)[C@@H](O)[C@@H]2O)c(=O)[nH]c1=O,,80 µM
Cc1c(C(=O)/C=C/c2ccccc2[N+](=O)[O-])[n+](=O)c2ccccc2n1[O-],,1.05 µg/mL
O=c1[nH]c(=O)n([C@@H]2C[C@H](CO)C[C@H]2CO)cc1I,,>200 µg/mL
CCn1cc(C(=O)O)c(=O)c2cc(F)c(N3CCN(CN4C(=O)/C(=N\c5ncc(Cc6cc(OC)c(OC)c(OC)c6)c(N)n5)c5cc(F)ccc54)CC3)cc21,,>10 µg/mL
O=c1[nH]c(=O)n([C@H]2C[C@H](O)[C@@H](CO)O2)cc1/C=C/Br,,>500 µM
COc1cc(Cc2cnc(/N=C3\C(=O)N(CN4CCN(c5cc6c(cc5F)c(=O)c(C(=O)O)cn6C5CC5)CC4)c4ccc(Br)cc43)nc2N)cc(OC)c1OC,,>10 µg/mL
CCCC[C@@]1(C(=O)CCC)CC[C@@]2(c3ccccc3)ON12,,<50 µg/mL
Fc1cccn2cc(-c3ccccc3)cc12,MTT,>500 µM
COc1cc2c(cc1OC)C1=NN(C(=O)Nc3ccc([N+](=O)[O-])cc3)C(c3ccc(F)cc3)C1C2,MTT,94.8 µM
COc1cc(Cc2cnc(/N=C3\C(=O)N(CN4CCN(c5c(F)cc6c(=O)c(C(=O)O)cn(C7CC7)c6c5OC)CC4C)c4ccc(C)cc43)nc2N)cc(OC)c1OC,,>10 µg/mL
CNc1nc(N)cc(Nc2ccc(Br)cc2)n1,,9.11 µg/mL
FC(F)(F)Oc1ccc(-c2cc3ccccn3c2)cc1,MTT,100 µM
CCOC(=O)C1=C(C)NC(C)=C(C(=O)OCC)C1c1cn(-c2ccccc2)nc1-c1ccc(Br)cc1,MTT,>10 µg/mL
CSc1nc2n(C/C=C\CO)nc(-c3ccccc3)c(=O)n2n1,,530 µM
CCCCCCCCCCCC(=O)OC[C@H](CO[C@@H]1O[C@H](CO)[C@@H](O)[C@H](O)[C@H]1O)OC(=O)CCCCCCCCCCC,,>100 µg/mL
Cn1cc(C(=O)NCc2ccc(Cl)cc2)c(=O)c2cc(CN3CCOCC3)ccc21,,>100 µM
FC(F)(F)c1cc(Cl)c2cc(-c3ccccc3)cn2c1,MTT,>500 µM
Clc1ccc(SCCCCn2ccnc2)cc1,luminescence,40 µM
OC[C@@H]1OC[C@H](On2cnc3c(Cl)ncnc32)O1,,>100 µg/mL
O=C(Nc1cccc(Br)c1)c1cccc2[nH]c(-c3ccncc3)nc12,,8.24 µg/mL
CCOC(=O)c1nc(C)c2c(c1N)C(=O)N(Cc1ccccc1)C2O,MTT,>100 µM
CCc1nc2ccc(C)cc2n1CCCCSc1ccccc1,luminescence,9.5 µM
CC#Cc1cn([C@@H]2O[C@H](COP(=O)(Oc3ccccc3)Oc3ccc([N+](=O)[O-])cc3)[C@@H](O)[C@@H]2O)c(=O)[nH]c1=O,,110 µM
O=C(Nc1ccccc1)c1cccc2[nH]c(-c3ccccn3)nc12,,55.6 µg/mL
CCCCCCN(CCCCCC)/N=C/c1c2c(O)c3c(O)c(C)c4c(c3c1O)C(=O)[C@@](C)(O/C=C/[C@H](OC)[C@@H](C)[C@@H](OC(C)=O)[C@H](C)[C@H](O)[C@H](C)[C@@H](O)[C@@H](C)/C=C/C=C(/C)C(=O)N2)O4,,11.29 µg/mL
Fc1cccc(-c2cc3ccccn3c2)c1,MTT,100 µM
Nc1nccc2nn([C@@H]3O[C@H](CO)[C@@H](O)[C@H]3O)nc12,trypan blue,>398 µM
CCN(CC)Cc1cc(Nc2cc(Cl)c3ccc(N(C)C)cc3n2)ccc1O.Cl.Cl.Cl,,2.65 µg/mL
CCc1nc2ccc(C)cc2n1CCCCNc1ccccc1,luminescence,22 µM
Cc1cn([C@H]2C[C@H](O)[C@@H](CO)S2)c(=O)[nH]c1=O,,7.1 µM
COc1cc2oc(-c3ccccc3)cc(=O)c2c(OC)c1OC,,263 µg/mL
CC(=O)c1c(C)n([O-])c2ccc(C)cc2[n+]1=O,,>62.5 µg/mL
COc1ncnc2c1ncn2O[C@@H]1CO[C@@H](CO)O1,,>100 µg/mL
O=C1CC(SC(=S)N2CCCCC2)C(=O)N1c1ccccc1,,3.7 µg/mL
COc1ncnc2c1ncn2O[C@@H]1CS[C@@H](CO)O1,,>100 µg/mL
CN(C)/C=C/c1c2c(nc3ccccc13)C(=O)c1cccnc1C2=O,,<0.26 µg/mL
Nc1ncnc2c1nnn2[C@@H]1O[C@H](CO)[C@@H](O)[C@H]1O,trypan blue,4.5 µM
CC#Cc1cn([C@@H]2O[C@H](COP(=O)(OCC)Oc3ccccc3)[C@@H](O)[C@@H]2O)c(=O)[nH]c1=O,,>500 µM
Cc1c(C(=O)c2ccccc2)[n+](=O)c2ccccc2n1[O-],,>62.5 µg/mL
COc1ccc2c(N/N=C/c3c(OC)ccc4ccccc34)ccnc2c1,,73 µg/mL
Cc1cccc(Cc2ccc(Cl)cc2)c1O,,4.2 µg/mL
CCCCC[C@]1(C(=O)CCC)CC[C@@]2(c3ccccc3)ON12,,<50 µg/mL
CCCCOc1ccc2nc(C)cc(NN)c2c1,,5.94 µg/mL
CC(=O)c1c(C)n([O-])c2cc(Cl)c(Cl)cc2[n+]1=O,,3.3 µg/mL
CCc1nc2ccccc2n1CCCCSc1ncc(C)s1,luminescence,>50 µM
Nc1nccc2c1nnn2[C@H]1CC[C@@H](CO)O1,trypan blue,>387 µM
COC(=O)n1c(C(=O)NC(C)C)nc2ccccc21,,153 µM
CN(C)/C=C/c1ccnc2c1C(=O)c1ccccc1C2=O,,9.1 µg/mL
COc1cc2c(cc1OC)C1=NN(C(N)=O)C(c3ccc(F)cc3)C1C2,MTT,177 µM
NC(=O)N=Nc1c(O)n(CN2CCN(c3cc4c(cc3F)c(=O)c(C(=O)O)cn4C3CC3)CC2)c2ccc(Br)cc12,,>0.1 µM
Nc1nccc2c1nnn2[C@H]1C[C@H](O)[C@@H](CO)O1,trypan blue,>396 µM
CC1=C(CCO)C(=O)C(O)=C2C1=CC(=O)[C@@H]1C(C)(C)CCC[C@@]21C,,12.7 µg/mL
CCOC(=O)C1=C(C)NC(C)=C(C(=O)OCC)C1c1cn(-c2ccccc2)nc1-c1ccc(O)cc1,MTT,4.27 µg/mL
COc1ccc2c(c1)[C@@H]1C[C@]1(C(=O)N1[C@@H]3CC[C@H]1CN(C)C3)Cn1c-2c(C2CCCCC2)c2ccc(C(=O)NS(=O)(=O)N(C)C)cc21,resazurin,29 µM
CCOc1ccc2c(N/N=C/c3ccc(OC)c4ccccc34)cc(C)nc2c1,,3.6 µg/mL
CCc1nc2ccccc2n1CCCCSc1ccc2ccccc2c1,luminescence,10 µM
CC(C)(C)C1=CC(=CC=C2C=CN(CCCCCCCCCCCO)C=C2)C=C(C(C)(C)C)C1=O,,2 µg/mL
NC(=O)N=Nc1c(O)n(CN2CCN(c3cc4c(cc3F)c(=O)c(C(=O)O)cn4C3CC3)CC2)c2ccccc12,,>0.019 µM
O=c1[nH]cnc2c1ncn2O[C@H]1CO[C@@H](CO)O1,,>100 µg/mL
C=C1C(=O)OC(C)(C)C1c1ccccc1,,<0.51 µg/mL
CC#Cc1cn([C@@H]2O[C@H](COP(=O)(N[C@H](C(=O)OC)C(C)C)Oc3ccccc3)[C@@H](O)[C@@H]2O)c(=O)[nH]c1=O,,>500 µM
CC1=NN(c2ccccc2)C(=O)C1N=Nc1ccc(S(=O)(=O)Nc2nnc(C)s2)cc1,,18.54 µg/mL
O=C(Nc1ccccc1O)c1cccc2[nH]c(-c3ccncc3)nc12,,18.5 µg/mL
N#Cc1ccc(-c2cc3ccccn3c2)cc1,MTT,>500 µM
Cc1c(C(=O)c2ccccc2)[n+](=O)c2cc(Cl)ccc2n1[O-],,14.68 µg/mL
CCOc1ccc2c(N/N=C/c3ccc(OC)c4ccccc34)ccnc2c1,,<4.2 µg/mL
C[CH2][Sn]([Cl])([Cl])[CH2]C.c1cnc2c(c1)ccc1cccnc12,,0.95 µg/mL
O=c1[nH]c(=O)n(C2C[C@H](CO)[C@@H](CO)C2)cc1I,,>200 µg/mL
CCN(CC)CCN1c2ccc(C)cc2Sc2ccc3ccccc3c21,,5.3 µg/mL
CSc1nc2n(COCCO)nc(-c3ccccc3)c(=O)n2n1,,>500 µM

For reference, 9 entries again:

compound,read by,result
CC1=NN(c2ccccc2)C(=O)C1N=Nc1ccc(S(=O)(=O)Nc2nnc(C)s2)cc1,,18.54 µg/mL
Nc1nccc2c1nnn2[C@H]1C[C@H](O)[C@@H](CO)O1,trypan blue,>396 µM
CNc1nc(N)cc(Nc2ccc(Br)cc2)n1,,9.11 µg/mL
COc1cc(Cc2cnc(/N=C3\C(=O)N(CN4CCN(c5c(F)cc6c(=O)c(C(=O)O)cn(C7CC7)c6c5F)CC4C)c4ccc(F)cc43)nc2N)cc(OC)c1OC,,>10 µg/mL
Nc1ccn([C@H]2C[C@@H](CO)[C@H](O)[C@@H]2O)c(=O)n1,,>100 µM
Nc1ncnc2c1nnn2[C@@H]1O[C@H](CO)[C@@H](O)[C@H]1O,trypan blue,4.5 µM
CCc1nc2ccc(C)cc2n1CCCCNc1ccccc1,luminescence,22 µM
COc1ccc2c(N/N=C/c3c(OC)ccc4ccccc34)ccnc2c1,,73 µg/mL
CCc1nc2ccc(C)cc2n1CCCCSc1ccccc1,luminescence,9.5 µM

CCn is the concentration with n% toxicity to the cells. a–b is a range or a potency band. Conditions beyond the fields shown may differ between rows.